Test results taken from US20260384417A1, “STERYLGLUCOSIDASE INHIBITING COMPOSITIONS AND METHOD OF USING” (published 2026).
Where two headings read alike, the source gives them in different places.

Sequences of proteins named here, by UniProt entry; tags and fusion partners are left off. Residues count along the entry.
UniProt J9W473, 1-851: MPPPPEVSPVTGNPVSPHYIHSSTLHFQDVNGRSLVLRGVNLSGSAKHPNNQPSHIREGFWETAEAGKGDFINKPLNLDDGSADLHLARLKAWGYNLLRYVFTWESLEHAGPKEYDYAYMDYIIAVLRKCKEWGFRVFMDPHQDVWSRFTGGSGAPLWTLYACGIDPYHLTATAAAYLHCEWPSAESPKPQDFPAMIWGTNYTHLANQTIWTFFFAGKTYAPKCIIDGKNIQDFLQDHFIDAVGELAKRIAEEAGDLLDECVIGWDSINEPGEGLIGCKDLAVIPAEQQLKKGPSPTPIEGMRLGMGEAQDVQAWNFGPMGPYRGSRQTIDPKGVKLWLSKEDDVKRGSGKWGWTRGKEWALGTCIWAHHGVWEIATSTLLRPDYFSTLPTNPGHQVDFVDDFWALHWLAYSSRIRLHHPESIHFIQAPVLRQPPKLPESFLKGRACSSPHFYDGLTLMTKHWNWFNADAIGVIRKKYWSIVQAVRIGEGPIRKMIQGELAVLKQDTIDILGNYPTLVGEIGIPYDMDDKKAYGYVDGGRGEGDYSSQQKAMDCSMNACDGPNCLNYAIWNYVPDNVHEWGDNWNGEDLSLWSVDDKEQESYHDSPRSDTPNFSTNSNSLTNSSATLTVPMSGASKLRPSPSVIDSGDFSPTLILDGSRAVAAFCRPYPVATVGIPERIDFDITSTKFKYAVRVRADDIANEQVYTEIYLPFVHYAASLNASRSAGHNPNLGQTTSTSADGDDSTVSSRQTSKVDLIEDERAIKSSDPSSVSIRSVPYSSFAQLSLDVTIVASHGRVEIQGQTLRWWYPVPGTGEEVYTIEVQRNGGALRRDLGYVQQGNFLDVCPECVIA
UniProt Q4WXA7, 1-759: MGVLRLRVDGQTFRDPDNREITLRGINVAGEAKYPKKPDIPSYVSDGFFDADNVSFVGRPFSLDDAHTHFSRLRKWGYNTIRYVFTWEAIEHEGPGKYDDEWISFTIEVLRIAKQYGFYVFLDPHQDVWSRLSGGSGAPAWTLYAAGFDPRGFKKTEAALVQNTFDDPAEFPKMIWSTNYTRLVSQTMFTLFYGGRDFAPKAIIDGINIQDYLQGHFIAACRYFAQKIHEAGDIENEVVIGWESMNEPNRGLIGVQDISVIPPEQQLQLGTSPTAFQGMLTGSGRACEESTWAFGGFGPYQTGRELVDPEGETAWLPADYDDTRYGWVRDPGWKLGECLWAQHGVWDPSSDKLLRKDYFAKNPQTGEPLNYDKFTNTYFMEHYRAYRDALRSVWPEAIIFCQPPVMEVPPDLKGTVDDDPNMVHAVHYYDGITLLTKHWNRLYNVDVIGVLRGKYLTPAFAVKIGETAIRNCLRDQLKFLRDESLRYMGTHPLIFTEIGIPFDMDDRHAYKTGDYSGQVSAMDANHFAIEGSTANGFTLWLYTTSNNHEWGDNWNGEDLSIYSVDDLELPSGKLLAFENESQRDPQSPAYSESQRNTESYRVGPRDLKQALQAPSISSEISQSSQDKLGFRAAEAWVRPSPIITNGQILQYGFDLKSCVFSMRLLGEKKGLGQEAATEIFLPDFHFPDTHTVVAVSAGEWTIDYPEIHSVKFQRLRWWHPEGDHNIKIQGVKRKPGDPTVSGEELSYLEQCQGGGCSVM

Columns and labels:
[1] = target: Sgl1 (Cryptococcus neoformans, UniProt J9W473); test: Cn Sgl1 inhibition, HTS with resorufin β-D-glucopyranoside / IC50 of hits
Source text: (§1) The Cn Sgl1 and Af SglA proteins in E. coli were cloned and overexpressed for two purposes: a) to produce large quantity of recombinant protein for a high-throughput screening (HTS) assay and b) to produce crystal structure of the enzymes.
(§2) A) To set up the HTS assay, the fluorogenic glucosidase substrate resorufin β-D-glucopyranoside was used. This substrate is ideal because it has been successfully implemented in HTS assays for other glucosidases (Urban D J, et al. 2008). Initial parameters were established to ensure linearity vs. time and [enzyme]. KM and Vmax were determined to ensure we screen below the KM for competitive inhibitors. Other critical factors were assessed, including enzyme stability upon long-term storage (Pereira de Sa N, et al. 2021). Lastly, the Z-score was calculated to assess the robustness of our assay and found to be 0.94, which is an outstanding score.
(§3) Hit 1, 4-(hydroxymethyl)-1-[2-(3-methoxy-phenyl)-1,3-thiazol-5-yl]methylpiperidin-4-ol (ChemBridge ID #59928901); Hit 9, N-[(3R,5S)-5-(hydroxymethyl)-1-methylpyrrolidin-3-yl]-2-(3-oxo-3,4-dihydro-2H-1,4-benzoxazin-6-yl)acetamide (Chembridge ID #23645796); and Hit 15 (2S,4R)-4-[(6-isopropyl-1-methyl-1H-pyrazolo[3,4-d]pyrimidin-4-yl)amino]-1-methyl-2-pyrrolidinyl methanol (ChemBridge ID #86711567).

[2] = target: SglA (Aspergillus fumigatus, UniProt Q4WXA7); test: Af SglA inhibition, HTS with resorufin β-D-glucopyranoside / IC50 of hits
Source text: as §1, §2, §3

[3] = target: T1, Cn Sgl1 (Cryptococcus neoformans, UniProt J9W473); test: Structural (co-crystal) analysis of inhibitor binding to Sgl1; conditions: co-crystal structure / structural analysis
Source text: FIG. 8. Structural analysis of Cn Sgl1 with its substrate and with its inhibitor. […] The active site is enclosed in a pocket. B) Interactions of ergosterol-3-β-glucoside with the Sgl1 active site. Glucose interacts with Lys 47 and Trp 570. The sterol component makes hydrophobic interaction with Glu 270 and Leu 431. C) Hit 1 (green) binds to Glu 270 and Trp 570. All other amino acids in the active site are shown.
Cn Sgl1 structure at 1.9 Å resolution (FIG. 8) and AfSglA structure at 2.0 Å resolution were solved (Pereira de Sa N, et al. 2022). […] In fact, Cn WT cells treated with Hit 9 accumulate more SGs than those treated with Hit 1 or Hit 15 (Pereira de Sa N, et al. 2021). Thus, Hit 9 was selected as the parent structure for generating Hit 9 derivatives against Cn Sgl1, such as SS-103 (see below). Similarly, Hit b (FIG. 9) or Hit c binds in the active site of SglA, thus preventing the binding of SGs to SglA. These structural studies have been published (Pereira de Sa N, et al. 2021 and 2022).

[4] = test system: Sgl1/SglA; test: Substrate specificity of sterylglucosidase (biochemical and structural); conditions: role: substrate; crystal structures
Source text: While working on the characterization of the gene involved in the catabolism of the sphingolipids, CNAG_05607 was discovered as the gene homolog to Cn EGCrP1, which is the glucosylceramidase active at neutral and alkaline pH (shibashi Y et al. 2012). […] In fact, CNAG_05607 from either Cryptococcus neoformans (Cn) (Rella A, et al., 2015), and its homologs from Aspergillus fumigatus (Af) (Pereira de Sa N, et al. 2020), metabolize sterylglucosides (SGs) and not glucosylceramide (GlcCer), as claimed improperly by an early publication which used as a substrate a different, short chain, non-physiological GlcCer (Watanabe T, et al. 2015). […] Thus, CNAG_05607 was renamed sterylglucosidase 1 (Cn Sgl1), the first sterylglucosidase ever isolated from any living organism. (Rella A, et al., 2015).
The short chain non-physiological GlcCer (C6-GlcCer), used in the studies by Watanabe et al. does fit the active site of Sgl1 (Pereira de Sa N, et al. 2021).

[5] = test system: C. neoformans H99; test: Sterylglucoside (ergosterol 3β-D-glucoside) accumulation in C. neoformans cells
Experimental: C. neoformans H99 was cultivated in yeast nitrogen base (YNB) broth for 24 h at 37 °C with shaking. A pellet with 5×10^8 cells was treated during 24 h with all the hits selected, according to the toxicity criteria, in various concentrations. […] After that, the resultant pellets were re-counted and used for lipid extraction. Thenceforth the total lipid was extracted and dried samples were resuspended in chloroform/methanol 2:1 ratio for LC-MS analysis. A standard erg-glc from Avanti Polar Lipids was used as a control for the calibration curve. Data were normalized to the total inorganic phosphate content in the sample.

[6] = target: T1, Cn Sgl1; test: Sgl1 enzyme inhibition with ergosterol 3β-D-glucoside in Triton X-100 mixed micelles, HPLC; conditions: ergosterol 3β-D-glucoside substrate; compared with Hit 9
Experimental: A 50 μL volume of Cn Sgl1 wild type and 50 μL of mixed micelles of lipid and Triton X-100 in 50 mM Bis-Tris buffer with 150 mM NaCl, 5 mM βME, and 5 mM DTT were mixed and incubated at 37 °C for 20 min (erg-glc, Avanti Polar Lipids). The amount of protein was 5 ng. After the incubation period, each reaction was quenched with a 2:1 chloroform:methanol solution and the organic phase was collected and dried. Then, the lipid content was resuspended in 50 μL methanol and applied to HPLC (Agilent Technologies). Total erg-glc and ergosterol was detected using absorbance at 282 nm on a C-8 column with a flow rate of 0.5 ml/min in methanol/water 90:10 ratio buffered with 1 mM ammonium formate and 0.2% formic acid. The total area of product was normalized by the total area of its respective substrate.

[7] = test system: C. neoformans; test: Mouse model of cryptococcosis, lung and brain tissue burden; conditions: 10 mg/kg/day intraperitoneally, Hit 1 with fluconazole (F)
Experimental: FIG. 5. Hit 1 prevents dissemination of C. neoformans to the brain. CBA/J mice were inoculated with 1×10^6 Cn WT H99. After 6 hours, treatment started intraperitoneally with 10 mg/kg/day of Hit 1 or fluconazole (F). Five mice in each group where euthanized and lung CFUs were analyzed at days 3, 6, 9, and 14 after infection/treatment (A) whereas brain CFU only at day 14 (B). […] One-way ANOVA, Tukey's Multiple Comparison Test. Ns, not significant; *, p<0.05; **, p<0.001, treated versus untreated.
Hit 1 was studied to see whether it would have antifungal activity in the animal model. This was possible even without comprehensive pharmacokinetics (PK) data because these compounds have favorable “druggable” properties. For instance, based on its biophysical properties and on pkCSM software (Pires D E, Blundell T L, et al. 2015), predicted PK and toxicity properties of Hit 1 were highly favorable. Hit 1 was tested in the cryptococcal animal model, whereas Hit b in the Aspergillus animal model. For the cryptococcal model, mice were infected intranasally and 6 hours, later Hit 1 was administered intraperitoneally every day, alone or in combination with fluconazole for 14 days, and lung and brain tissue burden was examined. […] Hit 1 also synergized with fluconazole in decreasing the lung fungal burden (FIG. 5). […]

[8] = test system: Af WT; test: Hyphal formation / elongation in A. fumigatus; conditions: Hit b 10 and 100 μM, Hit c 10, 100 and 500 μM; 12 hours for Hit b; versus ΔsglA
Experimental: FIG. 3. Effect of SglA deletion/inhibition on hyphal formation in A. fumigatus (Af). Deletion of sglA gene in Af (ΔsglAI) dramatically effects hyphal elongation. (B) compared to WT (A). Treatment of Af WT with Hit b for 12 hours. (C) recapitulates the phenotype of Δsgl4. (D) Quantitative analysis of hyphal length of Af WT untreated (Un), Af ΔsglA-Un. and Af WT treated with different concentrations of SglA inhibitors Hit b (10 and 100 μM) or Hit c (10, 100 and 500 μM). […] Black bar in A, B and C, 20 μm. *** in D, P<0.01, by ANOVA.

[9] = test system: A. fumigatus; test: Sterylglucoside (ergosterol 3β-D-glucoside) accumulation in A. fumigatus cells; conditions: versus Af Δsgla
Experimental: Wild-type Af ΔKu80pyrG1a and the mutant Δsgla strain were cultivated in yeast extract-glucose medium (YAG) (2% [wt/vol] glucose, 0.5% [wt/vol] yeast extract, 1× trace elements, 1× amino acid solution, 2% [wt/vol] bacteriological agar) for 48 h at 37 °C. High-nitrate salts, trace elements, and amino acid solutions were prepared. The medium was supplemented with 1.2 g/L of uracil and uridine (UU), generating YAG+UU medium when the strain ΔKu80pyrG1a was used. After that, the conidial suspension in water was obtained, and a pellet with 1×10^7 conidia was treated in minimal medium broth pH 6.5 (MM or MM+UU) (1% [wt/vol] glucose, 1× high-nitrate salts, 1× trace elements) for 48 h at 37 °C under agitation, with the hits selected, according to the toxicity criteria, at various concentrations. […] After that, the resultant hyphal pellet was used for lipid extraction. Then, the total lipid was extracted, and dried samples were resuspended in 2:1 chloroform-methanol for liquid chromatography-mass spectrometry (LC-MS) analysis. A standard ErgGlc from Avanti Polar Lipids was used as a control for the calibration curve. Data were normalized to the total inorganic phosphate content in the sample.

[10] = test system: A. fumigatus; test: Mouse model of pulmonary aspergillosis, survival and lung fungal burden
Experimental: FIG. 6. Hit b prolongs survival of mice infected with Af. A) Mice were infected with 5×10^4 Af conidia. After ~1 h they received an intraperitoneal injection of Hit b 5 mg/Kg or 20 mg/Kg, which they continued daily. n=10 mice in each group. * P<0.01, Hit b 20 mg/Kg versus untreated by Kruskal-Wallis test. B) No fungal DNA was found in lungs treated with Hit b. Graphed data represent the means f SD of the fold changes in 18S fungal rDNA/mouse lung GAPDH. Statistic was determined via two-way ANOVA using Tukey's multiple Comparation Test. *, P<0.001 for Hit b-treated versus untreated. IS, Immunosuppression.
FIG. 7. B7 Prolongs survival of mice infected with Af. A) Mice were infected with 5×10^4 Af conidia. […] Statistic was determined via two-way ANOVA using Tukey's multiple Comparation Test. *, P<0.001 for B7-treated versus untreated. […]
Treatment of WT Af cells with Hit b increases SGs by ~50% compared to the increase generated by the deletion of SglA (Af Δsgla) (data not shown) (Pereira de Sa N, et al. 2023). […] One hour later, they received an intraperitoneal injection of Hit b at 5 mg/kg/day or 20 mg/kg/day and mice survival was monitored. […] The lung fungal burden was assessed by qPCR determination of the concentration of Af 18S rDNA compared to the concentration of mouse lung GAPDH at the time of death for 5 mice untreated, and at day 30 for 5 mice treated with 20 mg/Kg/day of Hit b. […]

[11] = read-out: IC50 against Sgl1, HTS of DiverSet-CL ChemBridge library
[12] = read-out: IC50 against SglA, HTS of DiverSet-CL ChemBridge library

Row | SMILES | IC50 [1, 11] [nM] | IC50 ([1]; read-out: Sgl1 IC50, Table 1) [nM] | IC50 ([2]; read-out: SglA IC50, Table 1) [nM] | other results
1 | CN1C[C@H](NC(=O)Cc2ccc3c(c2)NC(=O)CO3)C[C@H]1CO | ≤ 1000 | 500 | 8000 | Binding to Sgl1 (structural) [3]: binds even more strongly to Sgl1 than Hit 1 or Hit 15
2 | CCCCCCCCCCCCC/C=C/[C@@H](O)[C@H](CO[C@@H]1O[C@H](CO)[C@@H](O)[C@H](O)[C@H]1O)NC(=O)CCCCC | – | – | – | Fit / interaction with the active site of Sgl1/SglA [4]: does fit the active site of Sgl1
3 | CN1C[C@H](NC(=O)C(c2ccc3oc4ccccc4c3c2)c2ccc3oc4ccccc4c3c2)C[C@H]1CO | – | – | – | SG accumulation in Cn WT cells ([5]; compared with other hits): significantly higher accumulation of ergosterol 3β-D-glucoside than Hit 9; Sgl1 enzyme inhibitory activity [6]: slightly lower enzyme inhibitory activity than Hit 9
4 | CC(C)c1nc(N[C@@H]2C[C@@H](CO)N(C)C2)c2cnn(C)c2n1 | ≤ 1000 | 1000 | 8000 | –
5 | COc1cccc(-c2ncc(CN3CCC(O)(CO)CC3)s2)c1 | ≤ 1000 | 1000 | 8000 | Lung fungal burden (CFU), cryptococcosis, combination with fluconazole [7]: synergized with fluconazole in decreasing the lung fungal burden; Increase of SGs in Cn WT cells compared to the increase generated by deletion of Sgl1 ([5]; versus Cn Δsgl1): 15-20%
6 | CC(Cc1ccc2c(c1)OCO2)c1c(-c2ccccc2)ncn1CCO (stereo not shown) | – | 8000 | 2000 | Hyphal elongation in Af WT [8]: significantly inhibit hyphal elongation in Af WT similarly to ΔsglA; IC50 [2, 12]: ≤ 1000 nM
7 | Cc1[nH]c2ccc(CNc3cc(N)ncn3)cc2c1C | – | 4000 | 1000 | Increase of SGs in WT Af cells compared to the increase generated by deletion of SglA [9]: ~ 50%; Survival ([10]; 20 mg/kg/day intraperitoneally, started 1 hour after infection): 50%; Survival of mice infected with Af ([10]; intraperitoneal, 5×10^4 Af conidia): prolongs survival of mice infected with Af; IC50 [2, 12]: ≤ 1000 nM
